Test results from paper PMC10385743.

How the values were obtained:
Details in all cases: CC50 (Huh5-2)/EC50
[1] = tested on: HCV GT 3a (strain S52) subgenomic replicon; assay type: cell-based, hepatitis C virus
[2] = tested on: HCV GT 4a (strain ED43) subgenomic replicon; assay type: cell-based, hepatitis C virus
[3] = tested on: DENV serotype 2 (strain 16681) subgenomic replicon; assay type: cell-based, dengue virus
[4] = tested on: YFV (strain 17D) subgenomic replicon; assay type: cell-based, yellow fever virus

Row | Structure (SMILES) | Huh7.5-3a(S52) (HCV Replicon 3a) SI [1] | Huh7.5-4a(ED43) (HCV Replicon 4a) SI [2] | Huh7-D2 (DENV-2 Replicon) SI [3] | Huh7-YF (YFV Replicon 17D) SI [4]
1 | CC1CCC2(NC(=O)N(CC(=O)NO)C2=O)c2ccccc21 [Compound 34, Ν-(hydroxy)-2-((4R,4′S)/(4S,4′R)-4′-methyl-2,5-dioxo-3′,4′-dihydro-2′H-spiro[imidazolidine-4,1′-naphthalene]-1-yl)acetamide] | 318 | 1429 |  | 
2 | CC1CCC2(NC(=O)N(CC(=O)NO)C2=O)c2ccccc21 [Compound 35, Ν-(Hydroxy)-2-((4R,4′R)/(4S,4′S)-4′-methyl-2,5-dioxo-3′,4′-dihydro-2′H-spiro[imidazolidine-4,1′-naphthalene]-1-yl)acetamide] | 260 | 488 |  | 
3 | O=C(CN1C(=O)NC2(CCC(c3ccccc3)CC2)C1=O)NO (stereo not drawn) [Compound 36, N-Hydroxy-2-(2,4-dioxo-8-phenyl-1,3-diazaspiro [4.5]decan-3-yl) acetamide] | 101 | 193 | 16 | 
4 | CN1C(=O)N(CC(=O)NO)C(=O)C12CCC(c1ccccc1)CC2 (stereo not drawn) [Compound 38, N-Hydroxy-2-(1-methyl-2,4-dioxo-8-phenyl-1,3-diazaspiro [4.5]decan-3-yl)acetamide] | 69 | 196 | 4 | 
5 | CN1C(=O)N(CC(=O)NO)C(=O)C12CCCCC2c1ccccc1 (stereo not drawn) [Compound 39, N-Hydroxy-2-(1-methyl-2,4-dioxo-6-phenyl-1,3-diazaspiro [4.5]decan-3-yl)acetamide] |  |  | 2 | 
6 | CCN1C(=O)N(CC(=O)NO)C(=O)C12CCC(c1ccccc1)CC2 (stereo not drawn) [Compound 40, N-Hydroxy-2-(1-ethyl-2,4-dioxo-8-phenyl-1,3-diazaspiro [4.5]decan-3-yl)acetamide] | 20 | 34 | 15.62 | 1.59
7 | O=C(CN1C(=O)N(Cc2ccccc2)C2(CCCCC2c2ccccc2)C1=O)NO (stereo not drawn) [Compound 42, N-Hydroxy-2-(1-benzyl-2,4-dioxo-6-phenyl-1,3-diazaspiro [4.5]decan-3-yl)acetamide] |  | 21 | 7 | 2
8 | CC(C(=O)NO)N1C(=O)NC2(CCC(c3ccccc3)CC2)C1=O (stereo not drawn) [Compound 49, N-(Hydroxy)-2-(2,4-dioxo-8-phenyl-1,3-diazaspiro [4.5]decan-3-yl)propanamide] |  |  |  | 1
9 | CC(C(=O)NO)N1C(=O)N(C)C2(CCC(c3ccccc3)CC2)C1=O (stereo not drawn) [Compound 53, N-(hydroxy)-2-(1-methyl-2,4-dioxo-8-phenyl-1,3-diazaspiro [4.5]decan-3-yl)propanamide] |  | 358 | 41 | 
